Reference: patent US7070991
Where “and” joins values, the source holds several entries; their conditions need not be identical. Equal entries are not always repeated.

Biological target: HIV-1 (concentrated virus preparation / 100 TCID50 inoculum) (HIV-1)
Test: cell-based or functional assay

“Soluble CD4 (from UniProt P01730 26-396) (receptor)” was tested, and the concentration required to prevent 50% of the cultures from becoming infected by HIV was 10 µg/mL and 25 µg/mL.
